Library screen at single concentrations

Mtb cholesterol medium: 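Growth of Mycobacterium tuberculosis over 4 days (cholesterol / DPPC medium with tyloxapol); the read-out is not stated. Tested at 500 µM. Higher reads as more growth inhibition (inferred: compounds with an IC50 in retests scored well above the rest). About 18,000 compounds were tested under these conditions; 5% (about 900) showed 50% or more at least once.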
Mtb glucose medium: 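Phenotypic screen: M. tuberculosis growth, glucose 7H9 medium, 3 days; the read-out is not stated. Concentration: 500 µM. Direction is inferred from retests: higher values go with more growth inhibition. Of about 18,000 compounds tested this way, about 1,400 (7.9%) reached 50% or more in at least one test.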

Results are given as percent effect.
The controls that fix the scale are not given in the record; negative values are as filed.
The entries come from a sample that favours strong results.
A dash means the value is not listed here; it may have been measured.

SMILES | Mtb cholesterol medium | Mtb glucose medium
CSCCCN1CCN(c2cccnc2)CC1 | - | 13.42
Nc1ccc(C(F)(F)F)nn1 | 6.979 | 4.933
COC(=O)c1ccc(CN(C)CCN2CCCC2=O)o1 | 0.6549 | -
CCCNc1cc(-n2cccn2)ncn1 | 67.07 | 72.31
CCCc1cc(C(=O)NC(C)c2nncn2C)no1 (stereo unspecified) | - | 5.576
CN1N=C(C(=O)NCc2cccc(C#N)c2)CCC1=O | 0.195 | 12.13
Cc1cc(C)cc(NC(=O)CNCCCO)c1 | - | 50.04
CN(C)C(=O)N1CCN(C(=O)CN)CC1 | - | -0.8953
Cc1ccc(C(=O)NCC2(C)CCOCC2)cn1 | - | 30.3
CCOc1cccc2c1CCC2N (stereo unspecified) | - | 37.44
COCCNS(=O)(=O)c1ccc2c(c1)CCC(=O)N2 | - | 7.064
COc1cc(CN2CCCC2CO)cc2c1OCO2 (stereo unspecified) | 15.14 | -
CCS(=O)(=O)NCCNC(=O)c1cc(C)cc(Br)c1 | 7.578 | -
CCC(C)(C)NC(=O)CNc1ccc2c(c1)OCCO2 | 83.54 | 83.92
Cc1ccc(CN(C)C(=O)CO)c(C)c1 | - | 24.63
O=C(COc1ncccn1)Nc1ccc(F)cc1F | 81.44 | -
CN(C)S(=O)(=O)Nc1ccc2c(c1)C(=O)CCC2 | - | 32.74
NS(=O)(=O)N1CCN(Cc2ccccc2)CC1 | - | 4.382
CNC(=O)Cn1cnc(N)n1 | 3.276 | -
CCc1cccc(S(=O)(=O)N2CC[C@H](N)C2)c1 | 13.12 | 59.04
O=C(CNc1ncnc2sccc12)N1CCCC1 | - | -8.964
NC(=O)C1CCN(CCOc2ccc(F)cc2)CC1 | - | 1.795
NCCNS(=O)(=O)c1ccccc1-c1ccccc1 | -5.72 | 29.04
CCNC(=O)N1CCC(C(=O)c2ccc(O)cc2)CC1 | - | 40.28
CCCNC(=O)C1CN(C(C)=O)c2ccccc2O1 (stereo unspecified) | -3.273 | -
Cc1cccc(OCC(=O)NC2CCCNC2)c1 (stereo unspecified) | 25.87 | 32.84
CC(C)CCOCCSc1nnnn1C | 83.91 | 59.81
O=C1CN(C(=O)CCC(=O)c2ccc(Cl)cc2)CCN1 | - | 1.21
COCc1noc(CN2CC[C@](C)(O)C(C)(C)C2)n1 | -71.71 | -
CNC(=O)NCCOc1ccc2c(c1)OCO2 | -3.768 | -4.564
CCCC(NC(=O)c1cnc(O)cn1)c1nccn1C (stereo unspecified) | -20.6 | -
CC(C)C(=O)N1CCC(C(N)=O)(c2ccccc2)CC1 | -12.45 | -
CSc1ccc(NC(=O)CNC(=O)OC(C)(C)C)cn1 | 44.06 | -
NC1CC(=O)N(CCc2ccccc2)C1 (stereo unspecified) | -8.846 | -
CN(CCOCc1ccccc1)C(=O)c1cnc[nH]1 | - | 15.79
CC(C)C1CCCN1CCN (stereo unspecified) | 2.767 | -
Cn1cc(NC(=O)NCC2(O)CCCCC2)cn1 | -2.539 | -
O=C1CCCCNC1 | -1.086 | -
CN(C)S(=O)(=O)CCCN1CC(c2ccccn2)C1 | - | 8.602
CSc1nnc(C)s1 | - | 41.19
CC(C#N)CNC(=O)OC(C)(C)C (stereo unspecified) | - | -6.106
CS(=O)(=O)c1ccccc1C(=O)Nc1ccccc1 | -3.848 | -
COc1ccccc1CC(=O)Nc1ncc(C(N)=O)s1 | - | 63.42
COc1ccc(C(=O)CCN(C)C)cc1OC | 19.77 | 105
O=S(=O)(CCN1CCC[C@H]1CO)c1ccccc1 | 34.75 | 51.41
CN(CC(N)=O)Cc1ccc(S(=O)(=O)N2CCCC2)o1 | - | 31.93
CN(Cc1cn(-c2ccc(Cl)c(Cl)c2)nn1)S(C)(=O)=O | - | 3.694
CSCC(=O)NC(C1CCNCC1)[C@H]1C[C@@H](O)C1 (stereo partly specified) | - | -11.31
Cc1cccc(NC(=O)C2CCCN(CCC#N)C2)n1 (stereo unspecified) | -1.525 | -
O=C(Nc1ccc2cn[nH]c2c1)N[C@@H]1CNCC[C@H]1O | - | 21.14
CC(=O)N1CCC(CNC(C)Cn2cccn2)CC1 (stereo unspecified) | - | -7.901
OC[C@@H]1CNCC[C@@H]1c1ccccc1 | - | -3.418
CC(=O)c1ccc(CNC(=O)c2cc[nH]n2)nc1C | - | 3.56
Cc1cc(N2CCCN(CC3CCNC3)CC2)ccn1 (stereo unspecified) | - | -5.679
Cc1ccc(C(C)NC(=O)Nc2nccn(C)c2=O)o1 (stereo unspecified) | - | 50.49
NC(=O)C1CCCN(Cc2ccccc2Cl)C1 (stereo unspecified) | - | 8.135
CCN1C(=O)C[C@H](CN)[C@H]1c1cccnc1 | -0.171 | -
CS(=O)(=O)NCC1CCCCC1 | - | 29.57
COCCCNC(=O)CCc1nc(-c2ccsc2)no1 | - | 16.09
OCC1CCN(C2CCCCC2)C1 (stereo unspecified) | - | 33.93
COc1ccc(CN(C)CC2CCOCC2)cn1 | - | -21.29
OCc1ccccc1C1CCNCC1 | 6.419 | -
CS(=O)(=O)c1ccc(NC(=O)c2cnsn2)cc1 | 10.52 | -
CN(C)S(=O)(=O)CCCS(=O)(=O)N1CCC(C)(CN)C1 (stereo unspecified) | - | 3.825
NC(c1ccccc1)c1ccco1 (stereo unspecified) | - | 20.58
Cc1ccc(NC(=O)C(C)N2CCC(O)CC2)cc1 (stereo unspecified) | 15.79 | 16.61
CCC(CO)N1CCN(c2nccnc2C#N)CC1 (stereo unspecified) | 0.3442 | -
C=C(C)CN1CCC(NC(=O)NC2CC2)CC1 | -0.6099 | -
CCN1CCC(NC(=O)c2ccc(F)cc2F)CC1 | -12.73 | -
CC(C)(N)c1nc2c(c(=O)[nH]1)CCCC2 | - | 10.82
COc1ccc(OCCSc2n[nH]c(N)n2)cc1 | 68.29 | 65.58
COc1cccc(Nc2ncnc(N)n2)c1 | 6.127 | 28.88
CNc1ncccc1C(=O)N1CC[C@](C)(O)[C@@H](O)C1 | - | 8.354
CCNC1=NN=C(c2ccc3c(c2)OCCCO3)CS1 | 58.96 | 64.82
CN(C)C(=O)CC(N)c1ccccc1 (stereo unspecified) | - | 6.584
CS(=O)(=O)NCCNC(=O)c1ccc2ccccc2n1 | -14.26 | 28.18
CCCC(C)NC(=O)c1coc(C)n1 (stereo unspecified) | - | 51.57

Repeated from the top, 10 entries:

SMILES,Mtb cholesterol medium,Mtb glucose medium
CSCCCN1CCN(c2cccnc2)CC1,-,13.42
Nc1ccc(C(F)(F)F)nn1,6.979,4.933
COC(=O)c1ccc(CN(C)CCN2CCCC2=O)o1,0.6549,-
CCCNc1cc(-n2cccn2)ncn1,67.07,72.31
CCCc1cc(C(=O)NC(C)c2nncn2C)no1 (stereo unspecified),-,5.576
CN1N=C(C(=O)NCc2cccc(C#N)c2)CCC1=O,0.195,12.13
Cc1cc(C)cc(NC(=O)CNCCCO)c1,-,50.04
CN(C)C(=O)N1CCN(C(=O)CN)CC1,-,-0.8953
Cc1ccc(C(=O)NCC2(C)CCOCC2)cn1,-,30.3
CCOc1cccc2c1CCC2N (stereo unspecified),-,37.44

From ChEMBL document CHEMBL3988442, “University of Dundee, Small-Polar-MMV Screening Library” (2021).